Tested on: Plasmodium falciparum
Assay: Antiplasmodial activity against lab-derived KAF156 resistant Plasmodium falciparum Dd2-Pfcarl mutant infected in human RBC assessed as parasite growth inhibition incubated for 72 hrs by SYBR Green dye based fluorescence assay
Format: functional, organism-based
Conditions: Erythrocyte

## Cc1ccccc1-n1nnnc1C(c1cncnc1)N(Cc1cccc(C(F)(F)F)c1)C1CC1 (racemic)
  EC50: 2 µM
